A mixed list of measured activities; the numbers were collected in NIAID ChemDB.

Common to all: whole-cell or culture tests; organism: Cytomegalovirus; endpoint: EC50

a–b is a range or a potency band. An empty or dashed field is not shown. Rows are shuffled and stem from different studies. ECn: concentration that inhibits the pathogen or its effect by n%.

C=C[C@@H](O)C1=C[C@@H](n2cnc3c(N)ncnc32)[C@H](O)[C@@H]1O ; strain or isolate: DAVIS ; read by: cytopathic effect ; cell line: HEL ; value: >50 µg/mL
O=c1[nH]c(=O)n([C@H]2C[C@H](O)[C@@H](CO)O2)cc1C1CC1 ; strain or isolate: DAVIS/AD169 ; read by: plaque count ; cell line: HEL ; value: >1500 µM
Nc1nc2c(ncn2[C@@H](CCO)SCCO)c(=O)[nH]1 ; read by: cytopathic effect ; cell line: HFF ; value: >200 µM
Nc1nc(N)c2ncn(C[C@H]3CCC[C@H]3CO)c2n1 ; strain or isolate: AD169 ; read by: plaque count ; cell line: HEL ; value: >50 µg/mL
Cc1cn([C@H]2C[C@H](O[Si](C)(C)C(C)(C)C)[C@@H](/C=C/C#N)O2)c(=O)[nH]c1=O ; strain or isolate: AD169 ; cell line: HeLa ; value: 10–20 µM
CCCCCCCn1cc2cc(CCCCCC)oc2nc1=O ; strain or isolate: AD169 ; read by: cytopathic effect ; cell line: HEL ; value: 20 µM
N/C(=N\O)c1cc(O)c(O)c(O)c1 ; read by: plaque count ; value: 7.1 µM
Nc1ncc2ncn([C@H]3CCC[C@H]3CO)c2n1 ; strain or isolate: AD169 ; read by: plaque count ; cell line: HEL ; value: >5 µg/mL
Nc1ncnc2c1ncn2[C@@H]1C=C(CO)[C@@H](O)[C@H]1O ; strain or isolate: DAVIS ; read by: cytopathic effect ; cell line: HEL ; value: 0.4 µg/mL
O=c1[nH]c(=O)n([C@H]2C[C@H](O)[C@@H](CO)S2)cc1C1CCCCC1 ; strain or isolate: DAVIS/AD169 ; read by: plaque count ; cell line: HEL ; value: >1200 µM
CC(C)(C)[Si](C)(C)OC[C@H]1O[C@@H](n2ccc(=O)[nH]c2=O)[C@H](O[Si](C)(C)C(C)(C)C)C1(O)[C@H](N=[N+]=[N-])C(N)=O ; read by: plaque count ; cell line: MRC-5 ; value: >5 µM
Nc1nc2c(ncn2C[C@H]2CCC[C@H]2CO)c(=O)[nH]1 ; strain or isolate: AD169 ; read by: plaque count ; cell line: HEL ; value: >50 µg/mL
CC(C)(C)c1cn([C@H]2C[C@H](O)[C@@H](CO)O2)c(=O)[nH]c1=O ; strain or isolate: DAVIS/AD169 ; read by: plaque count ; cell line: HEL ; value: >1500 µM
COC(=O)/C=C1/[C@@H](O[Si](C)(C)C(C)(C)C)[C@H](n2cc(C)c(=O)[nH]c2=O)O[C@@H]1CO[Si](C)(C)C(C)(C)C ; read by: plaque count ; cell line: MRC-5 ; value: 1.5 µM
Nc1nc2c(ncn2[C@H]2CO[C@@H](CO)C2)c(=O)[nH]1 ; strain or isolate: DAVIS ; read by: cytopathic effect ; cell line: HEL ; value: >40 µg/mL
Cc1nc(N[C@H]2CCOC[C@@H]2C)nc(-n2ccnc2)c1[N+](=O)[O-] ; read by: plaque count ; value: <0.6 µM
Nc1nc(N)c2ncn(OCC(CO)OCP(=O)(O)O)c2n1 ; strain or isolate: AD169 ; read by: plaque count ; cell line: MRC-5 ; value: >300 µg/mL
O=C1O/C(=C\Cn2cc(C(F)(F)F)c(=O)[nH]c2=O)C(O)=C1O ; cell line: HEL ; value: >50 µg/mL
OC[C@H]1O[C@@H](c2cc(C(O)C(I)I)c(F)cc2F)C[C@@H]1O ; strain or isolate: DAVIS ; read by: cytopathic effect ; cell line: HEL ; value: >200 µg/mL
O=C(CCCCCCCCCCC(=O)Nc1cc(S(=O)(=O)O)c2cccc(S(=O)(=O)O)c2c1)Nc1cc(S(=O)(=O)O)c2cccc(S(=O)(=O)O)c2c1 ; strain or isolate: AD169 ; read by: plaque count ; cell line: MRC-5 ; value: >100 µM
CC(C)(C)c1cn([C@H]2C[C@H](O)[C@@H](CO)S2)c(=O)[nH]c1=O ; strain or isolate: DAVIS/AD169 ; read by: plaque count ; cell line: HEL ; value: >1500 µM
CCCCCCc1cc2cn(CCCC)c(=O)nc2o1 ; strain or isolate: DAVIS ; read by: cytopathic effect ; cell line: HEL ; value: 20 µM
Cc1cn(C(CCO)OCCO)c(=O)[nH]c1=O ; read by: cytopathic effect ; cell line: HFF ; value: >200 µM
COc1nc(N)nc2c1ncn2OCCOCP(=O)(O)O ; strain or isolate: AD169 ; read by: plaque count ; cell line: MRC-5 ; value: <0.16 µg/mL
O=C(CCCCCCCCC(=O)Nc1cc(S(=O)(=O)O)cc2cc(S(=O)(=O)O)cc(O)c12)Nc1cc(S(=O)(=O)O)cc2cc(S(=O)(=O)O)cc(O)c12 ; strain or isolate: Isolate T-1095 ; read by: plaque count ; cell line: MRC-5 ; value: 65 µM
CCCc1cn([C@H]2C[C@H](O)[C@@H](CO)O2)c(=O)[nH]c1=O ; strain or isolate: DAVIS/AD169 ; read by: plaque count ; cell line: HEL ; value: >1500 µM
Cc1cn([C@@H]2O[C@H](CO[Si](C)(C)C(C)(C)C)C3(O[C@H]3C(=O)NN)[C@H]2O[Si](C)(C)C(C)(C)C)c(=O)[nH]c1=O ; read by: plaque count ; cell line: MRC-5 ; value: >5 µM
CC[C@@H](O)C1=C[C@@H](n2cnc3c(N)ncnc32)[C@H](O)[C@@H]1O ; strain or isolate: DAVIS ; read by: cytopathic effect ; cell line: HEL ; value: >50 µg/mL
OC[C@H]1O[C@@H](c2cc(C(O)CI)c(F)cc2F)C[C@@H]1O ; strain or isolate: AD169 ; read by: cytopathic effect ; cell line: HEL ; value: >200 µg/mL
O=C1OC(C(O)Cn2cc(C(F)(F)F)c(=O)[nH]c2=O)C(OCc2ccccc2)=C1OCc1ccccc1 ; cell line: HEL ; value: >50 µg/mL
Cc1cc(Sc2ccc(Cl)cc2)c2ncc(CSCCc3ccccc3)n2c1 ; strain or isolate: AD169 ; read by: plaque count ; value: 2.2 µg/mL
CCC[C@]1(CC(=O)O)OCCc2c1[nH]c1c(C)ccc(C#N)c21 ; strain or isolate: AD169 ; read by: ELISA ; cell line: VERO ; value: >100 µM
O=c1[nH]cnc2c1ncn2OCCOCP(=O)(O)O ; strain or isolate: AD169 ; read by: plaque count ; cell line: MRC-5 ; value: >340 µg/mL
CCCCCCc1cc2cnc(OC)nc2o1 ; strain or isolate: AD169 ; read by: cytopathic effect ; cell line: HEL ; value: >8 µM
Nc1nc2c(ncn2COC(CO)CO)c(=O)[nH]1 ; strain or isolate: 209 ; cell line: MRC-5 ; value: 9.9 µM
O=C1OC(C(O)Cn2ccc(=O)[nH]c2=O)C(OCc2ccccc2)=C1OCc1ccccc1 ; cell line: HEL ; value: >50 µg/mL
Cc1ccc(C(=O)Nc2ccc(S(=O)(=O)O)c3cc(S(=O)(=O)O)cc(S(=O)(=O)O)c23)cc1NC(=O)c1cccc(NC(=O)Nc2cccc(C(=O)Nc3cc(C(=O)Nc4ccc(S(=O)(=O)O)c5cc(S(=O)(=O)O)cc(S(=O)(=O)O)c45)ccc3C)c2)c1 ; strain or isolate: Isolate T-1082 ; read by: plaque count ; cell line: MRC-5 ; value: 25 µM
Cc1nc(N2CCOC[C@@H]2C)nc(-n2ccnc2)c1[N+](=O)[O-] ; value: 0.07 µM
Nc1nc2c(ncn2OCCOCP(=O)(O)O)c(=O)[nH]1 ; strain or isolate: AD169 ; read by: plaque count ; cell line: MRC-5 ; value: 0.07 µg/mL
Nc1nc(Cl)c2ncn([C@@H](CCO)SCCO)c2n1 ; read by: cytopathic effect ; cell line: HFF ; value: >200 µM

4 of the rows above, restated:

compound	strain or isolate	read by	cell line	value
CCCCCCCn1cc2cc(CCCCCC)oc2nc1=O	AD169	cytopathic effect	HEL	20 µM
Cc1cn(C(CCO)OCCO)c(=O)[nH]c1=O		cytopathic effect	HFF	>200 µM
Nc1nc2c(ncn2C[C@H]2CCC[C@H]2CO)c(=O)[nH]1	AD169	plaque count	HEL	>50 µg/mL
O=C1O/C(=C\Cn2cc(C(F)(F)F)c(=O)[nH]c2=O)C(O)=C1O			HEL	>50 µg/mL